Laboratory results: paper PMC6081459, “Pathogen-derived HLA-E bound epitopes reveal broad primary anchor pocket tolerability and conformationally malleable peptide binding” (Nature Communications, 2018)

What was measured:
[1] = test system: HLA-E-β2m complexes; parameters: species or system human; details: Cf compact form, Df diffuse form
[2] = test system: HLA-E-β2m complexes; format: binding, human

Row | Sequence | BN-PAGE gel signature of complex refolded with peptide [1] | BN-PAGE gel signature after UV-mediated peptide exchange [2]
1 | RLPAKAPLL [Mtb44] | singular, compactly formed bands | clear Cf signature
2 | RMYSPTSIL [RL9HIV] | resolved heterogeneously as two main bands | both diffuse and compact gel forms
3 | VMAPRTVLL [VL9, reference compound] | singular, compactly formed bands | –
